Experimental data as given in article PMC7526519.

Molecular target: SARS-CoV-2 receptor binding domain (RBD), His-tagged (SARS-CoV-2) (UniProt P0DTC2)
Test: SPR
Conditions: Fc fusion

Row | Substance | Kd [nM]
1 | fox ACE2 ectodomain fused with mouse Fc | 40.6
2 | little brown bat ACE2 ectodomain fused with mouse Fc | 312
